Test results: patent publication US20070060591A1, “Chemokine receptor binding heterocyclic compounds” (priority 1999, published 2007)

system: HIV-1 (HTLV-IIIB); type: cell-based; conditions: HIV-1 (IIIB); MT-4 cells
Method: The compounds of the invention were tested in a screen by the MTT method (J. Virol. Methods […] (1988)). MT-4 cells (2.5×10^4/well) were challenged with HIV-1 (HTLV-IIIB) or HIV-2 (LAV-2 ROD) at a concentration of 100 CCID50 and incubated in the presence of various concentrations of the test compounds, which were added immediately after challenge with the virus. After 5 days culture at 37° C. in a CO2 incubator, the number of viable cells was assessed by the MTT (tetrazolium) method. […] The potential therapeutic usefulness was assessed by calculating a Selectivity Index (SI) corresponding to the ratio of CC50 to EC50.

Row | Structure (SMILES) | SI HIV-1 (Selectivity Index, ratio of CC50 to EC50)
1 | CN(Cc1ccc(CN2CCCNCCNCCCNCC2)cc1)Cc1ccccn1 [AMD3538, N-[1,4,8,11-Tetraazacyclotetradecanyl-1,4-phenylenebis(methylene)]-N-methyl-2-(aminomethyl)pyridine] | 2.0 × 10^3
2 | Cc1cnc(CNCc2ccc(CN3CCCNCCNCCCNCC3)cc2)cn1 [AMD3498, N-[1,4,8,11-Tetraazacyclotetradecanyl-1,4-phenylenebis(methylene)]-(2-amino-methyl-5-methyl)pyrazine] | 1.2 × 10^3
3 | c1csc(CNCc2ccc(CN3CCCNCCNCCCNCC3)cc2)c1 [AMD3516, N-[1,4,8,11-Tetraazacyclotetradecanyl-1,4-phenylenebis(methylene)]-2-(amino-methyl)thiophene] | 225
4 | Nc1ccc(CNCc2ccc(CN3CCCNCCNCCCNCC3)cc2)cc1 [AMD3544, N-[1,4,8,11-Tetraazacyclotetradecanyl-1,4-Ihenylenebis(methylene)]-4-amino-benzylamine] | 317
5 | SCCNCc1ccc(CN2CCCNCCNCCCNCC2)cc1 [AMD3530, N-[1,4,8,11-Tetraazacyclotetradecanyl-1,4-phenylenebis(methylene)]-2-(amino-ethyl)mercaptan] | 350
6 | c1cc(CNCc2ccc(CN3CCCNCCNCCCNCC3)cc2)ccn1 [AMD3500] | 417
7 | c1nc(CCNCc2ccc(CN3CCCNCCNCCCNCC3)cc2)c[nH]1 [AMD3543, N-[1,4,8,11-Tetraazacyclotetradecanyl-1,4-phenylenebis(methylene)]-4-(amino-ethyl)imidazole] | 1 × 10^3
8 | c1ccc(CCNCc2ccc(CN3CCCNCCNCCCNCC3)cc2)nc1 [AMD3497, N-[1,4,8,11-Tetraazacyclotetradecanyl-1,4-phenylenebis(methylene)]-2-(amino-ethyl)pyridine] | 138
9 | c1ccc(CNCc2ccc(CN3CCCNCCNCCCNCC3)cc2)cc1 [AMD3529, N-[1,4,8,11-Tetraazacyclotetradecanyl-1,4-phenylenebis(methylene)]-benzylamine] | 325
10 | Nc1ccccc1CNCc1ccc(CN2CCCNCCNCCCNCC2)cc1 [AMD3517, N-[1,4,8,11-Tetraazacyclotetradecanyl-1,4-phenylenebis(methylene)]-2-amino-benzylamine] | 191
